The record followed here is PubChem BioAssay AID1159560 (GlaxoSmithKline (GSK), 2015).

SMILES strings stand for the structures. The source made the active and inactive calls. No rule for the calls is given here. Bounds are passed on as bounds.

The subject of this experiment is Leishmania donovani growth inhibition. Nature of the experiment: antileishmanial activity against L. donovani parasites (AID 1159560).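 Also: parasites exposed to compound for 72 h before the viability read.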

In the case of `CC(C)(C)c1ccc(NC2(C(N)=O)CCN(Cc3ccccc3)CC2)cc1`, the IC50 is inactive: > 50 µM.

In general, IC50 refers to the midpoint of a concentration-inhibition curve.
